US6548552B1 (priority 1997, dated 2003)

Test system: TSST-1 production by S. aureus
Conditions: each agent at the concentration of b78: ascorbic acid 0.06%, propyl gallate 0.1%, delta-tocopherol 2.0%, cysteine 0.1%, N-acetyl-cysteine 0.2%, thiodipropionic acid 0.02%, bisulfites 0.05%, caffeine 0.025%, glutathione 0.2%

Structure (SMILES)	effect on bacterial toxin production (in words)
CCCOC(=O)c1cc(O)c(O)c(O)c1 [Propylgallate, propyl gallate]	reduced toxin production
N[C@@H](CCC(=O)N[C@@H](CS)C(=O)NCC(=O)O)C(=O)O	reduced toxin production
